{
  "sequences": {"note": "Amino acid sequences for entries named in this document (tags omitted).", "UniProt P03372, whole entry, looked up": "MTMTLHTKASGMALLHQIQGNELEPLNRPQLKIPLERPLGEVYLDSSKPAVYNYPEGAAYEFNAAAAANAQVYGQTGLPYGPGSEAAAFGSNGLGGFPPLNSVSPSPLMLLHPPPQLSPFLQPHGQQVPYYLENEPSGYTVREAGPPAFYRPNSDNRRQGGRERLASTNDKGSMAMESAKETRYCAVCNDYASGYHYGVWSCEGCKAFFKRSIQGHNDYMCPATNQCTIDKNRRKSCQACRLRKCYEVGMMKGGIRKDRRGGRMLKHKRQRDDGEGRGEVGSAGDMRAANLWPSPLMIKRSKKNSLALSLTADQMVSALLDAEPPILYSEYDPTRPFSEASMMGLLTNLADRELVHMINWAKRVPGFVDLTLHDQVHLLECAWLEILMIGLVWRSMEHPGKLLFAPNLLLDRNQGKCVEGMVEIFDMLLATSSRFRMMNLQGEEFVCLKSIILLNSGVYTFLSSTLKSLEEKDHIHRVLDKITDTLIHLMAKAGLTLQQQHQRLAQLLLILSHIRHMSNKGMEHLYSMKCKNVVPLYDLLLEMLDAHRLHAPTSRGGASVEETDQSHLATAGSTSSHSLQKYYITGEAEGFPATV"},
  "source": "patent US7238793B2",
  "about": "(Duke University, priority 2001, dated 2007)",
  "target": "ERα (Homo sapiens, UniProt P03372)",
  "assay_type": "cell-based",
  "conditions": "ligand 10 nM",
  "note": "Where two headings read alike, the source gives them in different places.",
  "data": [
    {"smiles": "C[C@]12CC[C@@H]3c4ccc(O)cc4C[C@@H](CCCCCCCCC[S+]([O-])CCCC(F)(F)C(F)(F)F)[C@H]3[C@@H]1CC[C@@H]2O", "note": "(some centres unmarked) [ICI 182,780]", "values": [
      {"measurement": "ligand activity on ERα when RTA-Δ2 is expressed", "setting": "1X-ERE-tata-Luc", "result": "agonist"},
      {"measurement": "ligand activity on ERα when RTA-Δ2 is expressed", "setting": "3X-ERE-tata-Luc", "result": "agonists"}
    ]}
  ]
}
